The text below walks through data of US7635685B2 (priority 2003, dated 2009).

The test system of assay [1] is Staphylococcus epidermidis. The assay can be described thus: MIC microdilution assay against Staphylococcus epidermidis. Format: cell-based. Particulars: tested form: sulfate; for MIC: Staphylococcus epidermidis (ATCC 12228).
The test system of another assay is E. coli XL1(pET9d). The assay can be described thus: MIC microdilution assay against resistant E. coli XL1(pET9d). Format: cell-based. The settings on record: APH(3′), tested form: sulfate; for MIC: E. coli XL1 blue (pET9d), kanamycin-resistant. For orientation: Dilution methods test growth across graded concentrations, often in twofold steps.
Assay [2] deals with Pseudomonas aeruginosa (ATCC 27853). Kind of assay: MIC microdilution assay against Pseudomonas aeruginosa. Type of assay: cell-based. Particulars: tested form: sulfate; for MIC: Pseudomonas aeruginosa (ATCC 27853).
Assay [3] has as its target anthrax lethal factor (LF) (Bacillus anthracis, UniProt P15917). The assay can be described thus: in vitro fluorescent assay of inhibition of LF protease activity. Particulars: tested form: sulfate.
Assay [4] has as its system B. anthracis (Sterne strain). Kind of assay: MIC microdilution assay against B. anthracis. Format: cell-based, Bacillus anthracis. The settings on record: 18 h at 37° C., BHI broth, tested form: sulfate.
A further assay concerns E. coli strains. The assay can be described thus: MIC microdilution assay against E. coli strains. Type of assay: cell-based. The settings on record: tested form: sulfate.
The test system of assay [5] is Salmonella virchow (SV49). Kind of assay: MIC microdilution assay against Salmonella virchow. Type of assay: cell-based. The settings on record: tested form: sulfate; for MIC: Salmonella virchow (SV49), multidrug-resistant.
The mark [6] stands for this setting: read-out: Ki High salt, in the presence of BSA (in parentheses), high salt, 150 mM KCl, 0.1 mg/mL BSA.
The mark [7] stands for this setting: read-out: Ki High salt, high salt: 10 mM potassium HEPES pH 7.4, 150 mM KCl, LF about 33 nM, without BSA.
Where [8] appears, read: read-out: Ki Low salt, in the presence of BSA (in parentheses), low salt, 0.1 mg/mL BSA.
[9] abbreviates: read-out: Ki Low salt, low salt: 10 mM potassium HEPES pH 7.4, LF about 33 nM, without BSA.
Setting [10] is: strain resistant to kanamycin and neomycin B.

In brackets after ≈: the same amount, converted by molar mass. Where two headings read alike, the source gives them in different places.

In general, MIC refers to the lowest concentration that inhibits growth of the organism. Read a high MIC as a less susceptible organism. The term Ki denotes a dissociation constant, usually derived from enzyme kinetics or from competition with a known ligand. Consider `NC[C@@H]1O[C@H](O[C@H]2[C@@H](O)[C@H](O[C@@H]3[C@@H](O)[C@H](N)C[C@H](N)[C@H]3O[C@H]3O[C@H](CN)[C@@H](O)[C@H](O)[C@H]3N)O[C@@H]2CO[C@@H]2O[C@H](CN)[C@@H](O)[C@H](O)[C@H]2N)[C@H](N)[C@@H](O)[C@@H]1O`, for which the MIC in assay [1] was 5.5 to 6.0 µg/mL; in the assay on E. coli XL1(pET9d), 150 to 200 µg/mL; in assay [2] it was 10 to 15 µg/mL; in assay [4], 1 µg/mL (≈ 1.29 µM); against E. coli strains (E. coli (ATCC 25922)), 30 to 50 µg/mL; against E. coli strains (E. coli (R47-100)), 50 to 70 µg/mL. In assay [5], this compound yielded an MIC above 1000 µg/mL. Besides, in assay [2], the “antibacterial activity against Pseudomonas aeruginosa (from MIC)” value is listed as “significantly better results than either kanamycin or neomycin B”. Further, the Ki in assay [3] (setting [6]) came to 24 µM; in assay [3] (setting [7]), 20 µM; in assay [3] (setting [8]), 0.015 µM.
As to `NC[C@@H]1O[C@H](O[C@H]2[C@@H](O)[C@H](O[C@@H]3[C@@H](O)[C@H](N)C[C@H](N)[C@H]3O[C@H]3O[C@H](CN)[C@@H](O)[C@H](O)[C@H]3N)O[C@@H]2CO[C@@H]2O[C@H](CN)[C@@H](N)[C@H](O)[C@H]2O)[C@H](N)[C@@H](O)[C@@H]1O`, the MIC was above 200 µg/mL with E. coli XL1(pET9d); 30 to 35 µg/mL in assay [2]; 2 µg/mL (≈ 2.58 µM) in assay [4]; 40 to 50 µg/mL against E. coli strains (E. coli (ATCC 25922)); 40 to 50 µg/mL in the assay with E. coli strains (E. coli (R47-100)); above 1250 µg/mL in assay [5]. The Ki in assay [3] (setting [6]) was determined as 30 µM; in assay [3] (setting [7]), 28 µM; in assay [3] (setting [8]) it was 0.017 µM.
As to `NC[C@@H]1O[C@H](O[C@H]2[C@@H](O)[C@H](O[C@@H]3[C@@H](O)[C@H](N)C[C@H](N)[C@H]3O[C@H]3O[C@H](CN)[C@@H](O)[C@H](O)[C@H]3N)O[C@@H]2CS)[C@H](N)[C@@H](O)[C@@H]1O`, the MIC was 10 to 11 µg/mL in assay [1]; 700 to 800 µg/mL in the assay with E. coli XL1(pET9d); 350 to 400 µg/mL in assay [2]; 8 µg/mL (≈ 12.7 µM) in assay [4]; 100 to 150 µg/mL in the assay with E. coli strains (E. coli (ATCC 25922)); 90 to 100 µg/mL with E. coli strains (E. coli (R47-100)). The MIC in assay [5] was above 800 µg/mL. Moreover, the “change of binding to LF by addition of BSA” value in assay [3] (0.1 mg/mL BSA, low salt) is reported as “not significantly affected”. For the same compound, the Ki in assay [3] (setting [7]) came to 10 µM; in assay [3] (setting [9]) it was 0.0002 µM.
`NC[C@@H]1O[C@H](O[C@H]2[C@@H](O)[C@H](O[C@@H]3[C@@H](O)[C@H](N)C[C@H](N)[C@H]3O[C@H]3O[C@H](CN)[C@@H](O)[C@H](O)[C@H]3N)O[C@@H]2CO[C@@H]2O[C@H](CN)[C@@H](O)[C@H]2O)[C@H](N)[C@@H](O)[C@@H]1O`: the MIC in assay [1] was 4 to 5 µg/mL; in the assay with E. coli XL1(pET9d), 200 to 250 µg/mL; in assay [2], 55 to 60 µg/mL; in assay [4] it was 2 µg/mL (≈ 2.68 µM); in the assay with E. coli strains (E. coli (ATCC 25922)), 35 to 40 µg/mL; in the assay with E. coli strains (E. coli (R47-100)), 35 to 50 µg/mL. In assay [5], this compound came in with an MIC above 1000 µg/mL. Moreover, in assay [3] (low salt), the “tighter binding to LF than monoamino glucose derivatives IV and VII” value is on record as “about 10 fold”. The Ki in assay [3] (setting [7]) is 39 µM.
As to `NC[C@@H]1O[C@H](O[C@H]2[C@@H](O)[C@H](O[C@@H]3[C@@H](O)[C@H](N)C[C@H](N)[C@H]3O[C@H]3O[C@H](CN)[C@@H](O)[C@H](O)[C@H]3N)O[C@@H]2CO[C@@H]2O[C@H](CO)[C@@H](N)[C@H](O)[C@H]2O)[C@H](N)[C@@H](O)[C@@H]1O`, the MIC in assay [1] was 4.5 to 5.5 µg/mL; against E. coli XL1(pET9d), 250 to 400 µg/mL; in assay [2], 45 to 50 µg/mL; in assay [4], 2 µg/mL (≈ 2.58 µM); with E. coli strains (E. coli (ATCC 25922)) it was 45 to 60 µg/mL; in the assay with E. coli strains (E. coli (R47-100)), 45 to 50 µg/mL. For the same compound, in assay [5], the MIC was above 1000 µg/mL. For the same compound, the Ki in assay [3] (setting [6]) is 58 µM; in assay [3] (setting [7]) it was 85 µM; in assay [3] (setting [8]), 0.036 µM; in assay [3] (setting [9]), 0.015 µM.
`NC[C@@H]1O[C@H](O[C@H]2[C@@H](O)[C@H](O[C@@H]3[C@@H](O)[C@H](N)C[C@H](N)[C@H]3O[C@H]3O[C@H](CN)[C@@H](O)[C@H](O)[C@H]3N)O[C@@H]2CO[C@@H]2O[C@H](CO)[C@@H](O)[C@H](O)[C@H]2N)[C@H](N)[C@@H](O)[C@@H]1O`: the MIC in the assay with E. coli XL1(pET9d) was above 200 µg/mL; in assay [2], 40 to 50 µg/mL; in assay [4], 2 µg/mL (≈ 2.58 µM); in the assay with E. coli strains (E. coli (ATCC 25922)), 25 to 30 µg/mL; in the assay on E. coli strains (E. coli (R47-100)) it was 35 to 40 µg/mL; in assay [5], above 1250 µg/mL. The Ki in assay [3] (setting [7]) worked out at 66 µM; in assay [3] (setting [9]) it was 0.013 µM.
Consider `NC[C@@H]1O[C@H](O[C@H]2[C@@H](O)[C@H](OC[C@H]3O[C@@H](O[C@@H]4[C@@H](O)[C@H](N)C[C@H](N)[C@H]4O[C@H]4O[C@H](CN)[C@@H](O)[C@H](O)[C@H]4N)[C@H](O)[C@@H]3O[C@H]3O[C@@H](CN)[C@@H](O)[C@H](O)[C@H]3N)O[C@@H]2CO)[C@H](N)[C@@H](O)[C@@H]1O`, for which the MIC in assay [1] was 4 to 5 µg/mL; against E. coli XL1(pET9d), 250 to 500 µg/mL; in assay [2], 40 to 60 µg/mL; in assay [4], 2 µg/mL (≈ 2.21 µM); in the assay on E. coli strains (E. coli (ATCC 25922)) it was 100 to 150 µg/mL; against E. coli strains (E. coli (R47-100)) it was 150 to 200 µg/mL. For the same compound, the MIC in assay [5] is above 1000 µg/mL. Moreover, the Ki in assay [3] (setting [7]) amounted to 21 µM; in assay [3] (setting [9]), 0.0004 µM.
With `NC[C@@H]1O[C@H](O[C@H]2[C@@H](O)[C@H](O[C@@H]3[C@@H](O)[C@H](N)C[C@H](N)[C@H]3O[C@H]3O[C@H](CN)[C@@H](O)[C@H](O)[C@H]3N)O[C@@H]2CO[C@@H]2O[C@H](CO)[C@@H](N)[C@@H](N)[C@H]2O)[C@H](N)[C@@H](O)[C@@H]1O`, the MIC is 5.5 to 7 µg/mL in assay [1]; above 200 µg/mL with E. coli XL1(pET9d); 8 µg/mL (≈ 10.3 µM) in assay [4]; 95 µg/mL (≈ 123 µM) against E. coli strains (E. coli (ATCC 25922)); 85 µg/mL (≈ 110 µM) against E. coli strains (E. coli (R47-100)); above 1250 µg/mL in assay [5]. Further, the results for the Ki in assay [3] (setting [7]) and in assay [3] (setting [9]) were 50 µM and 0.011 µM, respectively.
On to `NC[C@@H]1O[C@H](O[C@H]2[C@@H](O)[C@H](O[C@@H]3[C@@H](O)[C@H](N)C[C@H](N)[C@H]3O[C@H]3O[C@H](CN)[C@@H](O)[C@H](O)[C@H]3N)O[C@@H]2CO[C@@H]2O[C@H](CO)[C@@H](O)[C@H]2O)[C@H](N)[C@@H](O)[C@@H]1O`, for which the “antibacterial activity against Staphylococcus epidermidis” value in assay [1] is recorded as “effective”. For the same compound, the MIC with E. coli XL1(pET9d) is 35 to 45 µg/mL; in assay [2] it was 60 to 65 µg/mL; in assay [4], 1 µg/mL (≈ 1.34 µM); against E. coli strains (E. coli (ATCC 25922)), 10 to 11 µg/mL; in the assay with E. coli strains (E. coli (R47-100)), 4.5 to 6 µg/mL. In the assay with E. coli XL1(pET9d) (kanamycin resistance), the “antibacterial activity against E. coli XL1(pET9d) (from MIC)” value is on record as “better activity than neomycin B”. For the same compound, in assay [2], the “antibacterial activity against Pseudomonas aeruginosa (from MIC)” value is “activity close to that of neomycin B”. For the same compound, the inhibition constant Ki in assay [3] (setting [7]) came out at 134 µM; in assay [3] (setting [9]) it was 0.028 µM. Further, the “antibacterial activity against E. coli strains (from MIC)” value in the assay with E. coli strains is given as “as potent as neomycin B”. The “more effective than kanamycin against Salmonella virchow” value in assay [5] (setting [10]) is recorded as “about 5 times”. Moreover, the “more effective than neomycin B against Salmonella virchow” value in assay [5] (setting [10]) is 2 times. Also, the “antibacterial activity against Salmonella virchow (from MIC)” value in assay [5] is listed as “better activity than other analogues”.
